The source of these data is patent US20210238252A1.

Experiment [1] addresses HIV Env glycoprotein of HIV-1 isolate BaL (HIV-1 strain BaL). The experiment is described as follows: cell-based or functional assay.
In experiment [2] the target is HIV Env glycoprotein of HIV-1 isolate NL4-3 (HIV-1 strain NL4-3). The experiment is described as follows: cell-based or functional assay.

Regarding MOLECULE-5 (C34) (Fc fusion), in experiment [1], the IC50 (ng/mL), neutralization of BaL, TZM-bl assay worked out at 1.2 ng/mL. This substance also registered an IC50 (ng/mL), neutralization of NL4-3, TZM-bl assay in experiment [2] of 1.2 ng/mL.
Substance “MOLECULE-5 (IgG3-C34) (from UniProt P01860 99-377) (Fc fusion)” gave an IC50 (ng/mL), neutralization of BaL, TZM-bl assay in experiment [1] of 0.8 ng/mL. Moreover, the IC50 (ng/mL), neutralization of NL4-3, TZM-bl assay in experiment [2] is 0.8 ng/mL.
As for MOLECULE-5 (IgG1-C34) (Fc fusion), in experiment [1], the IC50 (ng/mL), neutralization of BaL, TZM-bl assay was determined as 1.3 ng/mL. Moreover, the IC50 (ng/mL), neutralization of NL4-3, TZM-bl assay in experiment [2] came to 0.9 ng/mL.
Turning to “MOLECULE-5 (IgG2-C34) (from UniProt P01859 99-326) (Fc fusion)”, in experiment [1], the IC50 (ng/mL), neutralization of BaL, TZM-bl assay was 1.1 ng/mL. The IC50 (ng/mL), neutralization of NL4-3, TZM-bl assay in experiment [2] was 0.8 ng/mL.
In experiment [1], “MOLECULE-5 (IgG4-C34) (from UniProt P01861 99-327) (Fc fusion)” displayed an IC50 (ng/mL), neutralization of BaL, TZM-bl assay of 0.8 ng/mL. This substance displayed an IC50 (ng/mL), neutralization of NL4-3, TZM-bl assay in experiment [2] of 0.8 ng/mL.
